Results deposited as PubChem BioAssay AID504761 (Drosophila RNAi Screening Center, 2011)

Aim: 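Insect host genes that dengue virus relies on to spread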 (primary screen)
Cells: D.Mel-2 cells from Drosophila
Reagents: long dsRNA against Drosophila genes
Treatment: infection with dengue virus type 2; dose and infection time not stated
Detection: 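Per well on two replicate plates, imaging gave the percent of cells positive for viral envelope protein, ranked by infection, and a nuclear count of cells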
Scale: infection score: higher = more virus-infected cells; cell count: higher = more cells in the well
Rule for the call: 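Very low infection ranking in both replicate wells (chance probability at most 0.065), then a retest showing infection dropped 1.5-fold or more at p below 0.05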
Calls: active = confirmed: knock-down lowers infection; inactive = not picked or not confirmed
In all, the deposit lists about 22,000 reagents; shown is a random part of those with a known target gene and a result. In the full data, 116 (0.52%) are marked active. 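Calls depend on retest data that are not deposited; infection was ranked per plate without normalising between plates; the unit of the infection score is not given.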 Raw values are not corrected between plates. Reagents against one gene are numbered here. Further read-outs or replicates are left out here. No sequences are given here. The record does not give: the amount of reagent, the time to read-out.

cup (GeneID 33934) #1: infection score, replicate 1 = 4.35; cell count, replicate 1 = 5705; call = inactive
cup (GeneID 33934) #2: infection score, replicate 1 = 0.7; cell count, replicate 1 = 6250; call = inactive
Ugt303B2 (GeneID 42776) #1: infection score, replicate 1 = 2.75; cell count, replicate 1 = 6588; call = inactive
Ugt303B2 (GeneID 42776) #2: infection score, replicate 1 = 1.3; cell count, replicate 1 = 6533; call = inactive
CG10184 (GeneID 42783): infection score, replicate 1 = 8.62; cell count, replicate 1 = 6893; call = inactive
CG14864 (GeneID 41846): infection score, replicate 1 = 3.27; cell count, replicate 1 = 6242; call = inactive
Xpc (GeneID 36697): infection score, replicate 1 = 27.6; cell count, replicate 1 = 5887; call = inactive
DCTN4-p62 (GeneID 35709) #1: infection score, replicate 1 = 29.4; cell count, replicate 1 = 5589; call = inactive
DCTN4-p62 (GeneID 35709) #2: infection score, replicate 1 = 7.7; cell count, replicate 1 = 6143; call = inactive
Nrg (GeneID 31792) #1: infection score, replicate 1 = 8.1; cell count, replicate 1 = 6112; call = inactive
Nrg (GeneID 31792) #2: infection score, replicate 1 = 3.57; cell count, replicate 1 = 6676; call = inactive
Nrg (GeneID 31792) #3: infection score, replicate 1 = 7.55; cell count, replicate 1 = 6289; call = inactive
Cenp-C (GeneID 41014) #1: infection score, replicate 1 = 10.7; cell count, replicate 1 = 2923; call = inactive
Cenp-C (GeneID 41014) #2: infection score, replicate 1 = 5.32; cell count, replicate 1 = 6162; call = inactive
Fbw5 (GeneID 33854) #1: infection score, replicate 1 = 11.2; cell count, replicate 1 = 5754; call = inactive
Fbw5 (GeneID 33854) #2: infection score, replicate 1 = 7.29; cell count, replicate 1 = 1838; call = inactive
hoe2 (GeneID 33700): infection score, replicate 1 = 8.56; cell count, replicate 1 = 958; call = inactive
Ndf (GeneID 192507): infection score, replicate 1 = 11.3; cell count, replicate 1 = 6278; call = inactive
Traf6 (GeneID 31746): infection score, replicate 1 = 4.03; cell count, replicate 1 = 5961; call = inactive
gry (GeneID 38391) #1: infection score, replicate 1 = 1.9; cell count, replicate 1 = 6747; call = inactive
gry (GeneID 38391) #2: infection score, replicate 1 = 11.2; cell count, replicate 1 = 6361; call = inactive

2 consecutive reagents already listed, quoted:
gry (GeneID 38391) #1: infection score, replicate 1 = 1.9; cell count, replicate 1 = 6747; call = inactive
gry (GeneID 38391) #2: infection score, replicate 1 = 11.2; cell count, replicate 1 = 6361; call = inactive
